These results are taken from PubChem BioAssay AID2391 (Southern Research Specialized Biocontainment Screening …, 2010).

Some of the results follow. Entries with a potency or affinity are not part of this list. Active and inactive are the calls of the source. How the calls were made is not given here.

The assay can be described thus: inhibition of RSV-induced cytopathic effect – HEp-2 cells, primary 10 µM value included (AID 2391). The note with it: at 10 µM, hits give high values. In general terms: Cytopathic effects are the visible damage that an infection or toxin causes in cultured cells.
`O=C(NCC1(N2CCOCC2)CCCCC1)c1cc2ccccc2o1`: the CPE inhibition is inactive: -0.65%.
Consider `Cc1cc(C)cc(N(C(=O)c2ccccc2)C2CCN(C(=O)OC(C)(C)C)CC2)c1`, for which the CPE inhibition was inactive: 0.13%.
Turning to `O=C(NCC1(N2CCCCC2)CCCCC1)c1ccc(Cl)nc1`, the CPE inhibition was inactive: -1.79%.
On to `CCOC(=O)N1CCC(Nc2ccc(OC)cc2)CC1`, for which the CPE inhibition is inactive: -0.21%.
As for `COc1ccc(Cl)cc1C(=O)NCC1(N2CCOCC2)CCCCC1`, the CPE inhibition was inactive: 0.97%.
The figure for `O=C(NCC1(N2CCCCC2)CCCCC1)c1ccc(Cl)s1` is inactive: -0.29%; for `O=C(OC1CN2CCC1CC2)C1c2ccccc2Oc2ccccc21` (stereo unspecified) it is inactive: -0.58%; for `O=C(NCC1(N2CCCCC2)CCCCC1)c1cccs1` it is inactive: -0.36%.
In the case of `O=C(NCC1(N2CCCCC2)CCCCC1)c1ccc(=O)[nH]c1` it was inactive: 0.76%.
`COc1ccc(C(=O)NCC2(N3CCCCC3)CCCCC2)c(OC)c1OC`: the CPE inhibition was inactive: -0.48%.
In the case of `CC(C)(C)OC(=O)N1CCC(N(C(=O)c2ccccc2)c2ccc(F)cc2)CC1` it was inactive: 3.99%; in that of `COc1ccc(C(=O)NCC2(N3CCCCC3)CCCCC2)cc1`, inactive: 0.47%.
In the case of `CSc1ccccc1C(=O)NCC1(N2CCCCC2)CCCCC1` it was inactive: 1.65%.
Consider `Cc1ccc(OCC(C)C)c(CN(CCCl)CCCl)c1`, for which the CPE inhibition was inactive: 2.78%.
The figure for `CCOC(=O)N1CCC(Nc2cccc(C)c2)CC1` is inactive: 1.7%; for `COc1cc(C(=O)NCC2(N(C)C)CCCCC2)ccc1OC(F)F` it is inactive: 0.62%.
As to `CCOc1ccc(C)cc1CN(CCCl)CCCl`, the CPE inhibition was inactive: 0.76%.
In the case of `CCOC(=O)N1CCC(Nc2ccc(F)cc2)CC1` it was inactive: 0.41%; in that of `O=C(NCC1(N2CCCCC2)CCCCC1)c1ccc(F)cc1`, inactive: 0.74%.
As to `O=C(NCC1(N2CCCCC2)CCCCC1)c1cccc(C(F)(F)F)c1`, the CPE inhibition was inactive: 0.75%.
On to `CN1CCN(CCOC(=O)C(O)(c2ccccc2)c2ccccc2)CC1`, for which the CPE inhibition is inactive: 3.19%.
The figure for `COc1ccc(NC2CCN(C(=O)OC(C)(C)C)CC2)cc1` is inactive: -0.64%; for `COc1cc(C(=O)NCC2(N3CCCCC3)CCCCC2)ccc1OC(F)F` it is inactive: 0.65%.
In the case of `O=C(NCC1(N2CCOCC2)CCCCC1)c1cc(=O)[nH]c2ccccc12` it was inactive: 0.56%.
In the case of `O=C(NCC1(N2CCCCC2)CCCCC1)c1ccc(OC(F)F)cc1` it was inactive: 0.09%; in that of `O=C(NCC1(N2CCCCC2)CCCCC1)c1cccc([N+](=O)[O-])c1`, inactive: -0.94%; in that of `N#CC1(Nc2ccccc2)CCN(CCc2ccccc2)CC1`, inactive: -1.63%.
For `CCN1CCC(Nc2ccc(Cl)cc2)CC1`, the CPE inhibition was inactive: 1.61%.
The figure for `CN1CCC(Nc2cccc(F)c2)CC1` is inactive: -0.06%.
In the case of `O=C(NCC1(N2CCCCC2)CCCCC1)c1cncc(Br)c1` it was inactive: -0.54%.
In the case of `CCCOc1ccc(C(=O)NCC2(N(C)C)CCCCC2)cc1OC` it was inactive: 0.87%; in that of `CN(C)c1cccc(C(=O)NCC2(N3CCCCC3)CCCCC2)c1`, inactive: -0.56%.
Turning to `COc1ccc(CN(CCCl)CCCl)cc1Cl`, the CPE inhibition was inactive: 0.72%.
For `CC(C)c1ccc(NC2CCN(C(=O)OC(C)(C)C)CC2)cc1`, the CPE inhibition was inactive: 0.48%.
In the case of `COc1cc(OC)c(C(=O)NCC2(N(C)C)CCCCC2)cc1OC` it was inactive: -0.02%; in that of `N/C(=N\O)c1c(N)no[n+]1[O-]`, inactive: 0.53%.
Consider `CCOC(=O)N1CCC(Nc2ccc(C)cc2)CC1`, for which the CPE inhibition was inactive: 0.48%.
In the case of `CCc1cc(C(=O)NCC2(N3CCCCC3)CCCCC2)sc1C` it was inactive: 1.07%; in that of `O=C(OC1CN2CCC1CC2)C1c2ccccc2C=Cc2ccccc21` (stereo unspecified), inactive: 0.02%.
The figure for `O=C(NCC1(N2CCOCC2)CCCCC1)c1cc(Br)ccc1Cl` is inactive: 0.95%; for `COc1ccc(C(=O)NCC2(N3CCOCC3)CCCCC2)cc1OC` it is inactive: 0.89%.
The figure for `CCCN1CCC(Nc2cc(OC)cc(OC)c2)CC1` is inactive: 0.7%.
On to `c1ccc(CN2CCC(Nc3ccccc3)CC2)cc1`, for which the CPE inhibition was inactive: 1.08%.
The figure for `CN(C)C1(CNC(=O)c2cccc(C#N)c2)CCCCC1` is inactive: 2.15%; for `CC(C)(C)OC(=O)N1CCC(N(C(=O)c2ccccc2)c2ccc(Cl)cc2)CC1` it is inactive: 3.64%; for `N#Cc1ccc(C(=O)NCC2(N3CCCCC3)CCCCC2)cc1` it is inactive: -1.23%.
For `CCN1CCC(Nc2cccc(F)c2)CC1`, the CPE inhibition is inactive: 0.53%.
Turning to `CN(C)c1ccc(C(=O)NCC2(N3CCCCC3)CCCCC2)cc1`, the CPE inhibition is inactive: -0.64%.
For the molecule `O=C(NCC1(N2CCCCC2)CCCCC1)c1ccco1`, the CPE inhibition was inactive: -0.54%.
With `COc1cc(OC)cc(C(=O)NCC2(N3CCCCC3)CCCCC2)c1`, the CPE inhibition is inactive: 2.94%.
Regarding `Fc1ccccc1NC1CCN(Cc2ccccc2)CC1`, the CPE inhibition is inactive: -1.42%.
In the case of `Cc1ccc(C(=O)NCC2(N3CCCCC3)CCCCC2)o1` it was inactive: -0.75%.
The figure for `CCC(CO)(C(=O)OC1CN2CCC1CC2)c1ccccc1` (stereo unspecified) is inactive: -1.19%; for `COc1cc(OC)cc(C(=O)NCC2(N3CCOCC3)CCCCC2)c1` it is inactive: -0.42%.
As to `CCCOc1ccc(C)cc1CN(CCCl)CCCl`, the CPE inhibition was inactive: 0.67%.
In the case of `CN1CCC(Nc2ccc(Cl)cc2)CC1`, the CPE inhibition was inactive: 0.34%.
The figure for `CN1CCC(Nc2ccc(F)c(Cl)c2)CC1` is inactive: -0.43%; for `CCOc1ncccc1C(=O)NCC1(N2CCOCC2)CCCCC1` it is inactive: 1.11%.
As for `CCCOc1ccc(C(=O)NCC2(N(C)C)CCCCC2)cc1`, the CPE inhibition is inactive: -2.11%.
In the case of `O=C(O)C1(Nc2ccccc2)CCN(Cc2ccccc2)CC1` it was inactive: -1.03%; in that of `CC(C)(C)OC(=O)N1CCC(Nc2ccccc2)CC1`, inactive: 1.7%.
